The values below come from US20150087605A1 (priority 2013, published 2015).

In this assay the target is Anthrax Lethal Factor (LF) (Bacillus anthracis, UniProt P15917). Put plainly: competitive binding experiment: Sulindac-bMR binding to LF in presence of free competitor. As to conditions: increasing LF.

In the case of `CCCCc1ccc(C(=O)O)nc1` [Fusaric Acid], the “change in ΔMRtoxin of sulindac bMR nanosensor with free competitor” value was “significant decrease in the ΔMRtoxin”.
